Data as given in PubChem BioAssay AID624099 (ICCB-Longwood, 2012)
Shown is an unselected part of about 21,000 reagents tested. Of all reagents, 497 (2.4%) got an active call. 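Higher z means weaker E2 silencing; only reporter increases were scored, and knock-downs that hurt cell survival may mask genuine repressor factors.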 No sequences are given here.

- Test: 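Host factors E2 relies on to silence an HPV18 LCR reporter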 (primary screen)
- Cells: human C33A cervical carcinoma cells (HPV-negative) stably expressing BPV1 E2 and an HPV18 LCR luciferase reporter
- Knock-down reagent: siRNA pool against human genes, 40 nM
- Time to read-out: 72 h
- Measurement: 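HPV18 LCR reporter light per well, converted to plate-wise z-scores that exclude control wells, and averaged over triplicate plates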
- Direction: mean z-score and z-score: higher = stronger reporter signal, weaker E2 silencing
- Rule for the call: 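Hit if mean z-score reaches 2 and two or more of three replicate z-scores also reach 2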

With knock-down of VN2R1P (vomeronasal 2 receptor 1, pseudogene) [SID134325825] the results were mean z-score -0.18; z-score, replicate A = -0.27; z-score, replicate B = -0.09; z-score, replicate C = -0.17; inactive. ENPP7 (ectonucleotide pyrophosphatase/phosphodiesterase 7) [SID134313895] scored mean z-score 2.84; z-score, replicate A = 2.84; z-score, replicate B = 2.51; z-score, replicate C = 3.18; active. HMGA1 (high mobility group AT-hook 1) [SID134310541] showed mean z-score -1.19; z-score, replicate A = -1.11; z-score, replicate B = -1.36; z-score, replicate C = -1.09; inactive. With knock-down of DNAJB2 (DnaJ heat shock protein family (Hsp40) member B2) [SID134321603], the screen gave mean z-score -0.81; z-score, replicate A = -0.46; z-score, replicate B = -0.88; z-score, replicate C = -1.08; inactive. For LOC123397 (retired record) [SID134325347] the deposit lists mean z-score 0.05; z-score, replicate A = -0.19; z-score, replicate B = 0.34; z-score, replicate C = 0.02; inactive. TAS2R4 (taste 2 receptor member 4) [SID134317339] gave mean z-score 2.63; z-score, replicate A = 2.87; z-score, replicate B = 2.29; z-score, replicate C = 2.72; active.

Individual results from the entries so far.
Result for ENPP7 (ectonucleotide pyrophosphatase/phosphodiesterase 7) [SID134313895] in “mean z-score”: 2.84
Under “z-score, replicate C”, HMGA1 (high mobility group AT-hook 1) [SID134310541] is entered as -1.09

Next reagents follow:
Silencing of FUT3 (fucosyltransferase 3 (Lewis blood group)) [SID134313073] gave: mean z-score 1.9; z-score, replicate A = 1.93; z-score, replicate B = 1.81; z-score, replicate C = 1.94; inactive. GOSR2 (golgi SNAP receptor complex member 2) [SID134315345] scored mean z-score -0.75; z-score, replicate A = -0.67; z-score, replicate B = -0.62; z-score, replicate C = -0.94; inactive. With knock-down of SIX3 (SIX homeobox 3) [SID134323727] the results were mean z-score -1.09; z-score, replicate A = -1.25; z-score, replicate B = -1.09; z-score, replicate C = -0.92; inactive. CFAP418 (cilia and flagella associated protein 418) [SID134321866] showed mean z-score -1.76; z-score, replicate A = -1.79; z-score, replicate B = -1.8; z-score, replicate C = -1.7; inactive. LRRIQ1 (leucine rich repeats and IQ motif containing 1) [SID134329982] scored mean z-score 0.87; z-score, replicate A = 1.16; z-score, replicate B = 0.78; z-score, replicate C = 0.67; inactive. With knock-down of NLGN3 (neuroligin 3) [SID134313918], the screen gave mean z-score 0.93; z-score, replicate A = 0.94; z-score, replicate B = 1.02; z-score, replicate C = 0.82; inactive.
